This series addresses PARP-1 (Homo sapiens) (UniProt P09874). Description: EMSA. The settings on record: protein in an extract; protein details: endogenous, HepG2 nuclear lysate; label: 5'-biotin.

By UniProt entry, the sequences of proteins in these tests, tags left out. Residues count along the entry.
UniProt P09874, 2-1014: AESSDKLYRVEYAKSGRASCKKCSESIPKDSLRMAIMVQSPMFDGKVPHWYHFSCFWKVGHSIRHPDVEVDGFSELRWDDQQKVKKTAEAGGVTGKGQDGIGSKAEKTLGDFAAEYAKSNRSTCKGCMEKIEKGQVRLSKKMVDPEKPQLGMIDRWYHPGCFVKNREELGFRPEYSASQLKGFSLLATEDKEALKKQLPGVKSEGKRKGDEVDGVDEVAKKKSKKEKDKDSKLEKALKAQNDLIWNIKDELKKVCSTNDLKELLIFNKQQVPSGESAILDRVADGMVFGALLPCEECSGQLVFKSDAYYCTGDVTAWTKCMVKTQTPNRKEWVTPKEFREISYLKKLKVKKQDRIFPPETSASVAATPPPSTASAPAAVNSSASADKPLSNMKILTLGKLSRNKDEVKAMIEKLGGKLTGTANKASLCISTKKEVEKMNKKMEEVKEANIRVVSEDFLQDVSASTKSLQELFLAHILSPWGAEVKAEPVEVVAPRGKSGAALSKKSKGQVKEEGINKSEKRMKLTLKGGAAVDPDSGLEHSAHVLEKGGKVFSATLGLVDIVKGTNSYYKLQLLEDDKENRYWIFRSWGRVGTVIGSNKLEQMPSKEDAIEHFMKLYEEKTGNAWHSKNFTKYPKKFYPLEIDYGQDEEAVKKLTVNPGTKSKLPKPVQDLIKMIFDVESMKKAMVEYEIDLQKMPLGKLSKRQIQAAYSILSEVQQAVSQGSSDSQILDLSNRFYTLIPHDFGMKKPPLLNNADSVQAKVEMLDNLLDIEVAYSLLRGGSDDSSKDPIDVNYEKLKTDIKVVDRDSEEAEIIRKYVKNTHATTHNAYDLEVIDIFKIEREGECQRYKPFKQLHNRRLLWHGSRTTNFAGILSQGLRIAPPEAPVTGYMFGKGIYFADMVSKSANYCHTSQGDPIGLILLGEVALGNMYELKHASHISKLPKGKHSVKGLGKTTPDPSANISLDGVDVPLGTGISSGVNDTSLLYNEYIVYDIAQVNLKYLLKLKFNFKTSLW

Results from cells or extracts need not show a direct contact.

Consider “TTGAGGCCTACTTCAAAGACTGTGTG (double strand) [HBV core promoter PARP-1 probe]”, for which the binding result is recorded as “binds”.

These data come from patent publication US20140315973.
